Results deposited as PubChem BioAssay AID1259414 (Drosophila RNAi Screening Center, 2018)

Test: 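Fly genes that alter Wolbachia amount inside host cells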 (primary screen)
Cells: Drosophila JW18 cells infected with Wolbachia
Knock-down reagent: long dsRNA against Drosophila genes, 0.25 µg dsRNA per well of a 384-well plate
Duration: 5 days
Conditions: cells persistently infected with Wolbachia before knock-down; no added drug
Detection: 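Imaged fluorescence in situ signal for Wolbachia 23S rRNA per DAPI-counted host cell, given as a robust z-score within each plate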
Scale: Wolbachia per cell robust z: higher = more Wolbachia per host cell than the plate typical
Active means: 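Hit when robust z is 1.5 or more, or -1.5 or less, in at least two of three replicates; excludes dsRNAs with several or no targets, genes not expressed in JW18 and well A1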
In all, the deposit lists about 24,000 reagents; this is a random part of those with a known target gene and a result. Over the whole deposit, about 1,210 (5%) were called active. 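Inactive calls also include excluded dsRNAs with several or no targets, genes unexpressed in JW18, and well A1, regardless of score.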 The numbers tell different reagents against one gene apart. No sequences are given here.

| target | reagent | Wolbachia per cell robust z, rep 1 | Wolbachia per cell robust z, rep 2 | Wolbachia per cell robust z, rep 3 | Outcome |
| --- | --- | --- | --- | --- | --- |
| CG1441 | 1 | -0.183 | 0.489 | -0.27 | inactive |
| CG1441 | 2 | 1.02 | -0.322 | 0.235 | inactive |
| CG3225 | 1 | 0.0132 | 1.38 | 0.742 | inactive |
| CG3225 | 2 | 0.661 | 2.19 | 0.261 | inactive |
| CG17267 | 1 | 0.617 | -0.215 | -0.516 | inactive |
| CG31741 | 1 | -0.0712 | -4.5 | -0.889 | inactive |
| Muc4B | 1 | 0.46 | 0.188 | 1.96 | inactive |
| Muc4B | 2 | -0.257 | 0.885 | 0.286 | inactive |
| Muc4B | 3 | 1.45 | -0.228 | 1.8 | inactive |
| Cyp313a4 | 1 | 0.815 | -0.43 | 0.31 | inactive |
| List | 1 | -1.84 | 0.287 | -2.15 | inactive |

Next part (4 carried over from the part before).
| target | reagent | Wolbachia per cell robust z, rep 1 | Wolbachia per cell robust z, rep 2 | Wolbachia per cell robust z, rep 3 | Outcome |
| --- | --- | --- | --- | --- | --- |
| Muc4B | 2 | -0.257 | 0.885 | 0.286 | inactive |
| Muc4B | 3 | 1.45 | -0.228 | 1.8 | inactive |
| Cyp313a4 | 1 | 0.815 | -0.43 | 0.31 | inactive |
| List | 1 | -1.84 | 0.287 | -2.15 | inactive |
| E(spl)mgamma-HLH | 1 | 1.16 | 0.849 | -3.55 | inactive |
| E(spl)mgamma-HLH | 2 | 0.276 | 0.283 | -0.0816 | inactive |
| eIF3e | 1 | 1.82 | -0.864 | 0.623 | inactive |
| alphaTub85E | 1 | 0.582 | 0.757 | 2.87 | inactive |
| alphaTub85E | 2 | 1.03 | 2.59 | -3.96 | inactive |
| CG5167 | 1 | -0.508 | -0.927 | -0.676 | inactive |
| CG8478 | 1 | -0.388 | -0.846 | -0.967 | inactive |
| CG33721 | 1 | 0.203 | 0.51 | 0.544 | inactive |
| CG43295 | 1 | 1.16 | 0.776 | 0.798 | inactive |
| Echs1 | 1 | -0.862 | -0.219 | -1.45 | inactive |
| LysP | 1 | 0.0254 | 0.655 | 1.06 | inactive |
| LysP | 2 | 0.111 | 1.3 | 0.15 | inactive |
| scra | 1 | 1.25 | 2.87 | 1.25 | inactive |
| CG31446 | 1 | 0.044 | 0.0952 | 0.312 | inactive |
| CG13144 | 1 | -5.05 | -0.793 | 0.136 | inactive |
| srl | 1 | -0.386 | 0.325 | -1.15 | inactive |
| srl | 2 | 1.13 | 0.128 | 0.817 | inactive |
